Results of unrelated studies side by side (data: NIAID ChemDB).

Shared fields: whole-cell or culture tests; organism: Mycobacterium tuberculosis

Two numbers with a dash give a range or band.

smiles,measure,strain or isolate,tested at,cell line,method,value
O=C1c2ccccc2-c2nsc3cccc1c23,MIC bound,H37Rv,-,-,BACTEC,>12.5 µg/mL
CC1(C)O[C@H]2[C@@H]([C@H]3Cn4cc([N+](=O)[O-])nc4S3)OC[C@H]2O1,MIC,H37Rv,-,-,-,25 µg/mL
N/C(=N\N=C/c1cn(Cc2ccc(Cl)cc2)c2ccccc12)c1ccc2ccccc2n1,MIC,H37RV (INH RMP OFL-S),-,-,-,>128 µg/mL
CCCCCCN1CCC2(CC1)N=c1c(c3c4c5c(C)c(O)c3c(O)c1=NC(=O)/C(C)=C\C=C\[C@H](C)[C@H](O)[C@@H](C)[C@@H](O)[C@@H](C)[C@H](OC(C)=O)[C@H](C)[C@@H](OC)/C=C/O[C@@](C)(O5)C4=O)N2,MIC,H37Rv,-,-,-,0.0012 µg/mL
C=CCOCN1c2cc(OC)c([C@@]3(C(=O)OC)C[C@@H]4CN(CCc5c3[nH]c3ccccc53)C[C@](O)(CC)C4)cc2C23CCN4CC=C[C@](CC)([C@H]42)[C@@H](OC(C)=O)[C@](O)(C(=O)OC)[C@H]13,MIC,H37Rv,-,-,BACTEC,≥12.5 µg/mL
COc1ccc(N2C(=O)CC(Nc3ccc(Oc4ccc(Cl)cc4)c(Cl)c3)C2=O)cc1,MIC,H37Rv,-,-,-,100 µg/mL
O=C(NN1C(=O)C(Cl)C1c1ccco1)c1ccccc1-c1nc2ccccc2[nH]1,EC50,H37Rv,-,-,-,<0.031 µg/mL
CCOC(=O)Cc1csc(NC(=O)CSC(=S)N2CCCCC2)n1,MIC,H37Rv,-,-,-,>156 µg/mL
Cc1c(CN2CCN(C)CC2)cc(-c2ccc(Cl)cc2)n1-c1ccc(Cl)cc1,MIC,CIP6425,-,-,-,1.5 µg/mL
COc1cc2oc3c(c(=O)c2c(O)c1/C=C/C(C)C)C(C=C(C)C)Oc1cc(O)ccc1-3,MIC,KM-R,-,-,-,>12.5 µg/mL
O=C(N/N=C/c1ccccc1)c1ccccc1-c1nc2ccccc2[nH]1,EC50,H37Rv,-,-,-,>0.031 µg/mL
CC1(C)O[C@H]2[C@@H]([C@@H](O)Cn3ccnc3[N+](=O)[O-])OC[C@H]2O1,MIC,H37Rv,-,-,-,6.25 µg/mL
CC1(C)S[C@@H]2[C@H](NC(=O)[C@H](N)c3ccccc3)C(=O)N2[C@H]1C(=O)O,MIC,H37Rv,-,-,resazurin,32 µg/mL
N/C(=N\N=C/c1cn(Cc2ccc(Cl)cc2Cl)c2ccccc12)c1ccc2ccccc2n1,MIC,H37RV (INH RMP OFL-S),-,-,-,32 µg/mL
O=C1CC(Nc2ccc(Oc3ccc(Cl)cc3)c(Cl)c2)C(=O)N1c1cccc2ccccc12,MIC,H37Rv,-,-,-,100 µg/mL
COC(=O)C1C(c2cc3cc(C)ccc3nc2Cl)C2=C(CCCC2=O)N(c2cccnc2)C1N,inhibition,H37Rv,6.25 µg/mL,-,-,25%
CO[C@H]1/C=C/O[C@@]2(C)Oc3c(C)c(O)c4c(O)c(c5c(c4c3C2=O)NC2(CCN(CC(C)C)CC2)N=5)=NC(=O)/C(C)=C\C=C\[C@H](C)[C@H](O)[C@@H](C)[C@@H](O)[C@@H](C)[C@H](OC(C)=O)[C@@H]1C,MIC,H37Rv,-,-,-,0.005 µg/mL
O=C(N/N=C/C=C/c1ccccc1)c1ccccc1-c1nc2ccccc2[nH]1,inhibition,H37Rv,0.031 µg/mL,-,-,50%
COC1=C(Br)[C@@H](O)[C@]2(C=C1Br)CC(C(=O)NCCCCNC(=O)C1=NO[C@]3(C=C(Br)C(OC)=C(Br)[C@@H]3O)C1)=NO2,MIC,H37Rv,-,-,-,12.5 µg/mL
Cc1cc2[nH]c3c(C#N)c4c(c(=O)n3c2cc1C)CCCC4,MIC bound,H37Rv,-,-,resazurin,>6.25 µg/mL
Oc1cc(Cl)cc(Cl)c1C(=S)NCc1ccc(Cl)c(Cl)c1,MIC,My 331/88,-,-,-,16 µg/mL
Cn1cc(NC(=O)c2cc(NC(=O)Nc3cc(C(=O)Nc4cc(C(=O)NCCC(N)=[NH2+])n(C)c4)n(C)c3)cn2C)cc1C(=O)NCCC(N)=[NH2+],MIC,H37Rv,-,-,BACTEC,3.13 µg/mL
C#CCN(Cc1ccc2nc(N)nc(N)c2c1Cl)c1ccc(C(=O)N[C@@H](CCC(=O)O)C(=O)O)cc1,EC50,ATCC 2724,-,-,resazurin,>99 µM
O=C(O)C1=C/C(=C(\c2ccccc2)c2cc(C(=O)[O-])c([O-])c3ccccc23)c2ccccc2C1=O.[Na+].[Na+],inhibition,H37Rv,12.5 µg/mL,-,BACTEC,0%
CN[C@@H]1[C@H](O[C@H]2[C@H](O[C@H]3[C@H](O)[C@@H](O)[C@H](N=C(N)N)[C@@H](O)[C@@H]3N=C(N)N)O[C@@H](C)[C@]2(O)C=O)O[C@@H](CO)[C@H](O)[C@H]1O,MIC,H37RV (SM-R),-,-,-,35 µg/mL
Cc1ccc(NC(=O)c2ccncc2)cc1C,MIC bound,H37Rv,-,-,resazurin,>6.25 µg/mL
CCOC(=O)C1C(c2cc3cc(OC)ccc3nc2Cl)C2=C(CCCC2=O)N(c2cccnc2)C1N,MIC,H37Rv,-,-,-,12.5 µg/mL
N/C(=N\N=C/c1cn(Cc2ccc(Cl)cc2Cl)c2ccccc12)c1ccccn1,MIC,H37RV (INH RMP OFL-S),-,-,-,>128 µg/mL
NNC(=O)c1ccncc1,MIC,H37Rv,-,-,resazurin,0.06 µg/mL
Cc1cccc(O)c1C(=S)NCc1ccc(Cl)cc1,MIC,My 331/88,-,-,-,2 µg/mL
CCOC(=O)Cc1csc(NC(=O)CSC(=S)N2CCC(Cc3ccccc3)CC2)n1,MIC,H37Rv,-,-,-,>156 µg/mL
NC(=O)C(CO)NC(=O)c1ccc[n+](Cc2ccccc2)c1.[I-],MIC bound,H37Rv,-,-,BACTEC,>12.5 µg/mL
CCCOc1ccc(N2C(=O)CC(Nc3ccc(Oc4ccc(Cl)cc4)c(Cl)c3)C2=O)cc1,MIC,H37Rv,-,-,-,100 µg/mL
Oc1ccccc1C(=S)NCc1ccccc1,MIC,My 331/88,-,-,-,0.5 µg/mL
CCOC(=O)Cc1csc(NC(=O)C(SC(=S)N2CCCCC2C)c2ccccc2)n1,MIC,H37Rv,-,-,-,>156 µg/mL
Cc1ccccc1Cn1ccc2c3c(N)nc(N)nc3ccc21,EC50,ATCC 2724,-,-,resazurin,6.03 µM
N/C(=N\N=C/c1cn(Cc2cccc(Cl)c2)c2ccccc12)c1ccccn1,MIC,H37RV (INH RMP OFL-S),-,-,-,8 µg/mL
CC12CC(=O)C3C(CCC4CC(OS(=O)(=O)[O-])CCC43C)C1CC1OC(=O)C=C12.[Na+],inhibition,H37Rv,12.8 µg/mL,-,BACTEC,14%
CNC(C)C1CC[C@@H](N)[C@@H](O[C@H]2[C@H](O)[C@@H](OC3OC[C@](C)(O)[C@H](NC)[C@H]3O)[C@H](N)C[C@@H]2N)O1,MIC,MC2 6230,-,-,resazurin,4 µM
NNC(=O)C(=O)Nc1ccc(F)cc1,MIC bound,H37Rv,-,-,BACTEC,>12.5 µg/mL
CCN1CCC2(CC1)N=c1c(c3c4c5c(C)c(O)c3c(O)c1=NC(=O)/C(C)=C\C=C\[C@H](C)[C@H](O)[C@@H](C)[C@@H](O)[C@@H](C)[C@H](OC(C)=O)[C@H](C)[C@@H](OC)/C=C/O[C@@](C)(O5)C4=O)N2,MIC,H37Rv,-,-,-,0.005 µg/mL
COC(=O)N1c2ccccc2N(C(=O)OC)c2c1oc1ccccc1c2=O,inhibition,H37Rv,12.5 µg/mL,-,BACTEC,95%
Cc1cc(C2=NOC(c3c(Cl)cccc3Cl)C2)ccc1O,MIC,H37R (MTB),-,-,-,1.82 µM
CCOC(=O)C1C(c2cc3ccccc3nc2Cl)C2=C(CCCC2=O)N(c2cccnc2)C1N,inhibition,H37Rv,6.25 µg/mL,-,-,8%
CCOC(=O)Cc1csc(NC(=O)C(SC(=S)N2CCOCC2)c2ccccc2)n1,MIC,H37Rv,-,-,-,>156 µg/mL
COc1ccc(O)c(C(=S)NCc2cccc(Cl)c2)c1,MIC,My 331/88,-,-,-,0.5 µg/mL
Cc1cc(O)c2c(c1)C(=O)C(c1c(C)cc3c(c1O)C(=O)C=CC3=O)=CC2=O,MIC,C84 (streptomycin- isoniazid- ethambutol-resistant),-,-,-,100 µg/mL
O=C(O)c1ccc2c(c1)C(=O)OC2=O,inhibition,H37Rv,6.25 µg/mL,-,resazurin,-7%
O=C(NCc1cccc(C(F)(F)F)c1)c1ccccc1O,MIC,My 331/88,-,-,-,62.5 µg/mL
COc1cc(/C=N/NC(=O)c2ccccc2-c2nc3ccccc3[nH]2)cc(OC)c1OC,EC50,H37Rv,-,-,-,>0.031 µg/mL
COC(=O)Nc1nc2ccc(C3c4c(n[nH]c4C)CC(C)(O)C3C(C)=O)cc2[nH]1,inhibition,H37Rv,12.5 µg/mL,-,BACTEC,-13%
N/C(=N\N=C/c1cn(Cc2ccccc2)c2ccccc12)c1ccccn1,MIC,H37RV (INH RMP OFL-S),-,-,-,8 µg/mL
CCOC(=O)Cc1csc(NC(=O)C(C)SC(=S)N(CC)CC)n1,MIC,H37Rv,-,-,-,>156 µg/mL
Cc1ccc(NC(=S)SCc2ccc3c(c2)OCO3)cc1Cl,MIC bound,H37Rv,-,-,BACTEC,>12.5 µg/mL
Nc1nc(N)c2c(ccc3c2ccn3Cc2ccc([N+](=O)[O-])cc2)n1,EC50,ATCC 2724,-,-,resazurin,>99 µM
O=C(N/N=C/c1ccc(Cl)cc1Cl)c1ccccc1-c1nc2ccccc2[nH]1,EC50,H37Rv,-,-,-,<0.031 µg/mL
CN[C@@H]1[C@H](O[C@H]2[C@H](O[C@H]3[C@H](O)[C@@H](O)[C@H](N=C(N)N)[C@@H](O)[C@@H]3N=C(N)N)O[C@@H](C)[C@]2(O)C=O)O[C@@H](CO)[C@H](O)[C@H]1O,MIC,H37Rv,-,-,resazurin,0.25 µg/mL
COc1ccc(C2CC(c3ccc(O)c(C)c3)=NO2)cc1,MIC,INH-resistant M. tuberculosis,-,-,-,>6.25 µM
N#CC1C(c2cc3ccccc3nc2Cl)C2=C(CCCC2=O)N(c2cccnc2)C1N,inhibition,H37Rv,6.25 µg/mL,-,-,12%
CC1(C)O[C@H]2[C@@H]([C@H](O)Cn3ccnc3[N+](=O)[O-])OC[C@H]2O1,MIC,H37Rv,-,-,-,>25 µg/mL
CN1C(=O)CC(Nc2ccc(Oc3ccc(Cl)cc3)c(Cl)c2)C1=O,MIC,H37Rv,-,-,-,100 µg/mL
CC(C)(C)C1=NC(=S)SC2=NC(=O)C3(NN21)c1ccccc1-c1ccccc13,MIC bound,H37Rv,-,-,resazurin,<6.25 µg/mL
COc1cc(C2CC(c3ccc(O)c(C)c3)=NO2)ccc1O,MIC,H37R (MTB),-,-,-,>6.25 µM
CC1(C)O[C@H]2[C@@H]([C@@H]3Cn4cc([N+](=O)[O-])nc4S3)OC[C@H]2O1,MIC,H37Rv,-,-,-,25 µg/mL
CO[C@H]1/C=C/O[C@@]2(C)Oc3c(C)c(O)c4c(O)c(c5c(c4c3C2=O)NC2(CCN(C(C)C)CC2)N=5)=NC(=O)/C(C)=C\C=C\[C@H](C)[C@H](O)[C@@H](C)[C@@H](O)[C@@H](C)[C@H](OC(C)=O)[C@@H]1C,MIC,H37Rv,-,-,-,0.005 µg/mL
O=c1[nH]c(-c2ccccc2)c(-c2ccccc2)nc1Cl,MIC bound,H37Rv,-,-,BACTEC,>12.5 µg/mL
C[C@@H](O)[C@H]1C(=O)N2C(C(=O)O)=C(SCCN=CN)C[C@H]12,MIC,H37Rv,-,-,resazurin,4 µg/mL
CN1C2CCC1CC(OC(=O)C1CCC(C(=O)OC3CC4CCC(C3)N4C)(c3ccccc3)c3ccccc31)C2,inhibition,H37Rv,6.25 µg/mL,-,resazurin,17%
Oc1cc(Cl)ccc1C(=S)NCc1ccc(F)cc1,MIC,My 331/88,-,-,-,1 µg/mL
C/C=C/C/C=C/CCC(=O)[C@H]1O[C@H]1C(N)=O,MIC,-,-,-,-,3–6.25 µg/mL
CO[C@H]1C([C@H](O)Cn2cnc([N+](=O)[O-])c2)O[C@@H]2OC(C)(C)O[C@@H]21,MIC,H37Rv,-,-,-,25 µg/mL
CC(/C=C/c1ccco1)=N\NC(=O)c1ccncc1,MIC,H37Rv,-,VERO,BACTEC,0.2 µg/mL
COC(=O)C1C(c2cc3ccccc3nc2Cl)C2=C(CCCC2=O)N(c2cccnc2)C1N,inhibition,H37Rv,6.25 µg/mL,-,-,90%
CC1(C)O[C@H]2[C@@H]([C@H](O)Cn3cnc([N+](=O)[O-])c3)OC[C@H]2O1,MIC,H37Rv,-,-,-,6.25 µg/mL
Cc1cc(C2=NOC(c3ccc(F)cc3)C2)ccc1O,MIC,INH-resistant M. tuberculosis,-,-,-,2.92 µM
CC1=C(N2CCOCC2)C(N2CCOCC2)C(C)C1=O,MIC bound,H37Rv,-,-,BACTEC,>12.5 µg/mL
CCOC(=O)Cc1csc(NC(=O)C(SC(=S)N2CCCCC2)c2ccccc2)n1,MIC,H37Rv,-,-,-,>156 µg/mL
O=C(NN1C(=O)C(Cl)C1c1ccccc1)c1ccccc1-c1nc2ccccc2[nH]1,inhibition,H37Rv,0.031 µg/mL,-,-,96%
C[C@@H](O)[C@H]1C(=O)N2C(C(=O)O)=C([C@H]3CCCO3)S[C@H]12,MIC,H37Rv,-,-,resazurin,4 µg/mL
c1ccc(-c2cc3cc4c(cc3[nH]2)Oc2ccccc2O4)cc1,inhibition,H37Rv,12.5 µg/mL,-,BACTEC,-3%
CN(C)c1ccc(/C=N/NC(=O)c2ccccc2-c2nc3ccccc3[nH]2)cc1,EC50,H37Rv,-,-,-,>0.031 µg/mL

Inhibition is in % at the dose shown (toxicity tests: loss of growth or viability). ECn is the concentration giving n% inhibition of infection, replication or growth. MIC bound: limit read from a one-dose screen. Blank or dashed fields: not listed here. Rows are shuffled and stem from different studies.